Measured values as given in PubChem BioAssay AID652126 (The Scripps Research Institute Molecular Screening Center, 2013).
The entries are a selection whose mix differs from that of the whole data set. Activity calls are given as the source filed them.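 Rule for the calls: active = activation above the mean over all tested compounds plus 3 SD (cut at about 0.9% in these data); inactive = the rest.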

test system: Nuclear hormone receptor DAF-12 (Strongyloides stercoralis); assay: S. stercoralis DAF-12 nuclear receptor activators, primary screen, cell-based, luminescence, HEK293, GRIP1 co-expression, lit1-tk-luc (AID 652126); conditions: HEK293 ssDAF-12/GRIP1 lit1-tk-luc reporter, at 6.8 µM, hits give high values, % of 3 µM dafachronic acid response;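 note: 0% = DMSO-only wells and 100% = 3 µM delta7-dafachronic acid wells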

| Compound | activation |
| --- | --- |
| O=C(NCC1(N2CCCCC2)CCCCC1)c1cccc([N+](=O)[O-])c1 | inactive: -1.05% |
| CC(C)(C)n1nnnc1C(c1ccccc1OC(F)(F)F)N1CCC(n2c(=O)[nH]c3ccccc32)CC1 (stereo unspecified) | inactive: -1.07% |
| O=C(NCC1(N2CCCCC2)CCCCC1)c1ccc(OC(F)F)cc1 | inactive: -0.71% |
| COc1ccc(C(c2nnnn2C2CCCC2)N2CCC(n3c(=O)[nH]c4ccccc43)CC2)cc1 (stereo unspecified) | inactive: -0.89% |
| Cc1ccc(C(=O)NCC2(N(C)C)CCCCC2)o1 | inactive: -1.19% |
| CCCOc1ccc(C(=O)NCC2(N(C)C)CCCCC2)cc1OC | inactive: -1.13% |
| O=C(NCC1(N2CCCCC2)CCCCC1)c1cncc(Br)c1 | inactive: 0.88% |
| CN1CCC(Nc2cccc(F)c2)CC1 | inactive: -0.77% |
| COc1cc(OC)c(C(=O)NCC2(N(C)C)CCCCC2)cc1OC | inactive: -1.12% |
| CCC(c1nnnn1C(C)(C)C)N1CCC(n2c(=O)[nH]c3ccccc32)CC1 (stereo unspecified) | inactive: -1.72% |
| O=C(NCC1(N2CCOCC2)CCCCC1)c1cc(F)c(F)cc1Cl | inactive: -1.13% |
| CCCCn1nnnc1C(c1ccnc2ccccc12)N1CCC(n2c(=O)[nH]c3ccccc32)CC1 (stereo unspecified) | inactive: -1.13% |
| CC(C)c1ccc(NC2CCN(C(=O)OC(C)(C)C)CC2)cc1 | inactive: -1.44% |
| COC(=O)C1(Nc2ccccc2)CCN(Cc2ccccc2)CC1 | inactive: -1.31% |
| COc1ccc(CN(CCCl)CCCl)cc1Cl | inactive: -0.72% |
| CN(C)c1cccc(C(=O)NCC2(N3CCCCC3)CCCCC2)c1 | inactive: -1.79% |
| O=c1[nH]c2ccccc2n1C1CCN(C(c2cc3ccccc3o2)c2nnnn2C2CCCCC2)CC1 (stereo unspecified) | inactive: -1.11% |
| O=C(OC1CN2CCC1CC2)C1c2ccccc2Oc2ccccc21 (stereo unspecified) | inactive: -1.43% |
| N#CC1(Nc2ccccc2)CCN(Cc2ccccc2)CC1 | inactive: -1.43% |
| O=C(NCC1(N2CCCCC2)CCCCC1)c1ccc(Cl)s1 | inactive: -0.84% |
| COc1ccc(Cl)cc1C(=O)NCC1(N2CCOCC2)CCCCC1 | inactive: -0.87% |
| CCOC(=O)N1CCC(Nc2ccc(OC)cc2)CC1 | inactive: -1.17% |
| CCCCn1nnnc1C(c1ccc(OC)cc1)N1CCC(n2c(=O)[nH]c3ccccc32)CC1 (stereo unspecified) | inactive: -2.02% |
| O=c1[nH]c2ccccc2n1C1CCN(C(c2ccccc2OC(F)(F)F)c2nnnn2C2CCCCC2)CC1 (stereo unspecified) | inactive: -0.32% |
| O=C(NCC1(N2CCCCC2)CCCCC1)c1ccc(Cl)nc1 | inactive: -0.95% |
| Cc1cc(C)cc(N(C(=O)c2ccccc2)C2CCN(C(=O)OC(C)(C)C)CC2)c1 | inactive: -1.58% |
